Series [1] deals with Nc1ncnc2c1ncn2[C@@H]1O[C@H](COP(=O)(O)OP(=O)(O)OP(=O)(O)O)[C@@H](O)[C@H]1O. Description: purified protein. The conditions noted are these: pH 8.0; 30.0 °C.
In another series the test system is C[C@@H](N)C(=O)O. The series can be described thus: purified protein. The conditions noted are these: pH 8.0; 30.0 °C.

A word on the Km: it is the concentration of substrate that gives half-maximal velocity. In the case of “BpDdl (Burkholderia pseudomallei D-alanine-D-alanine ligase) (Burkholderia pseudomallei K96243)”, the figures for the Km (in series [1]; in the series on C[C@@H](N)C(=O)O) were 70 ± 10 µM and 370 ± 85 µM, respectively.

Source of the values: paper PMC6899670 (The Febs Journal, 2019).
